Results deposited as PubChem BioAssay AID624099 (ICCB-Longwood, 2012).
The whole screen tested about 21,000 reagents; below is a part drawn at random. 497 of all reagents (2.4%) count as active. 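Higher z means weaker E2 silencing; only reporter increases were scored, and knock-downs that hurt cell survival may mask genuine repressor factors.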 Reagents against one gene are numbered here.

- Purpose: 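Human genes that papillomavirus E2 requires to repress the HPV18 LCR promoter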 (primary screen)
- System: human C33A cervical carcinoma cells (HPV-negative) stably expressing BPV1 E2 and an HPV18 LCR luciferase reporter
- Reagents: siRNA pool against human genes, 40 nM
- Timing: 72 h
- Measurement: 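HPV18 LCR reporter light per well, converted to plate-wise z-scores that exclude control wells, and averaged over triplicate plates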
- Reading the numbers: mean z-score and z-score: higher = stronger reporter signal, weaker E2 silencing
- Hit rule: 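Mean z ≥ 2 together with z ≥ 2 in two or more of the three replicates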

no.	gene	pool no.	mean z-score	z-score, replicate A	z-score, replicate B	z-score, replicate C	call
1	LOC401324	1	0.14	0.18	-0.16	0.39	inactive
2	LOC401324	2	0.47	0.41	0.61	0.39	inactive
3	LOC388847 (retired record)	1	1.82	1.51	1.98	1.97	inactive
4	RPL4	1	-1.92	-2.01	-1.92	-1.83	inactive
5	AMIGO1	1	0.01	0.2	-0.02	-0.16	inactive
6	TMX3	1	0.38	0.37	0.35	0.42	inactive
7	ANKHD1-EIF4EBP3	1	-0.07	0.15	-0.16	-0.19	inactive
8	LOC390488 (retired record)	1	0.09	-0.05	0.1	0.22	inactive
9	RPL10	1	-3.74	-3.85	-3.71	-3.67	inactive
10	LOC401477 (retired record)	1	0.62	0.91	0.51	0.45	inactive
11	MIER3	1	-0.62	-0.13	-0.94	-0.78	inactive
12	EDAR	1	-0.57	-0.68	-0.59	-0.45	inactive
13	H2BW1	1	0.58	0.65	0.67	0.42	inactive
14	PDIA2	1	-1.17	-1.49	-1.29	-0.71	inactive
15	LOC387903 (retired record)	1	-0.55	-0.74	-0.63	-0.27	inactive
16	KRT222	1	0.79	1.05	0.6	0.73	inactive
17	FBXL7	1	-0.65	-0.62	-0.55	-0.78	inactive
18	LIMK2	1	2.88	2.12	3.05	3.45	active
19	FLNB	1	-1.23	-0.89	-1.53	-1.26	inactive
20	ACBD4	1	1.04	1.05	0.9	1.18	inactive
21	MEIS2	1	1.97	1.92	2.27	1.73	inactive
22	IKZF2	1	0.09	0	-0.18	0.43	inactive

Copied from the list.
Value of LOC401477 (retired record) under “z-score, replicate C”: 0.45
Under “z-score, replicate B”, TMX3 has 0.35
Under “z-score, replicate B”, PDIA2 shows -1.29
LOC390488 (retired record), call: inactive

Next records follow.
no.	gene	pool no.	mean z-score	z-score, replicate A	z-score, replicate B	z-score, replicate C	call
23	LOC219638 (retired record)	1	0.43	0.35	0.56	0.4	inactive
24	PILRB	1	-1.06	-1.09	-1.02	-1.06	inactive
25	B4GALT6	1	1.2	0.74	1.56	1.29	inactive
26	TRABD	1	0.06	0.05	-0.13	0.26	inactive
27	SELENOW	1	0.91	0.6	1.03	1.11	inactive
28	TTC22	1	-0.5	-0.26	-0.8	-0.45	inactive
29	HOXC8	1	-0.54	-0.7	-0.24	-0.69	inactive
30	PFKFB1	1	-0.61	-0.42	-0.59	-0.83	inactive
31	INHBC	1	0.66	0.54	0.52	0.91	inactive
32	LOC338756 (retired record)	1	0.43	0.09	0.49	0.71	inactive
33	TRPC5	1	0.44	0.19	0.67	0.47	inactive
34	ZNF747	1	-1.06	-0.97	-1.31	-0.9	inactive
35	MPV17	1	-0.66	-0.76	-0.59	-0.63	inactive
36	GET1P1	1	-0.37	-0.48	-0.5	-0.12	inactive
37	LGALS16	1	-0.27	-0.62	-0.11	-0.07	inactive
38	CXCR5	1	1.07	1.24	0.91	1.07	inactive
39	NUSAP1	1	-0.19	-0.46	-0.19	0.08	inactive
40	GPR31	1	-0.43	-0.18	-0.71	-0.4	inactive
41	SMG6	1	-1.58	-2.04	-1.33	-1.38	inactive
42	LRP10	1	0.37	0.41	0.31	0.38	inactive
43	RNASE8	1	1.19	1.29	0.98	1.32	inactive
44	CHRNA10	1	-1.16	-1.22	-1.06	-1.22	inactive
45	APOBEC3H	1	1.46	0.75	1.84	1.79	inactive
46	THOC3	1	-0.41	-0.61	-0.18	-0.45	inactive
47	GALNT6	1	-0.66	-0.53	-0.48	-0.96	inactive
48	LOC389149 (retired record)	1	0.75	0.45	0.98	0.82	inactive
49	LINC00926	1	0.25	0.12	0.26	0.37	inactive
50	HNF4A	1	-0.08	-0.03	0.12	-0.34	inactive
51	UBC	1	-2.48	-1.96	-2.8	-2.68	inactive
52	SSR1	1	-0.23	-0.28	-0.25	-0.16	inactive
53	NOTCH4	1	0.18	0.06	0.17	0.29	inactive
54	LOC402469 (retired record)	1	-1.06	-1.18	-1.14	-0.85	inactive
55	SLC7A13	1	-0.56	0.03	-0.8	-0.91	inactive
56	LOC286478 (retired record)	1	0.83	0.93	0.58	0.96	inactive
57	LINC01591	1	0.4	0.33	0.61	0.26	inactive
